According to patent publication US20230241205A1, “SARS-COV-2 IMMU[…] AND USES THEREOF” (TScan Therapeutics, Inc., priority 2020, published 2023):

Tests used:
[1] = tested on: memory CD8+ T cells of convalescent COVID-19 patients; target cells expressing only HLA-A*11:01; assay type: cell-based, human
[2] = tested on: memory CD8+ T cells of convalescent COVID-19 patients; target cells expressing only HLA-A*01:01; assay type: cell-based, human

| Sequence | # of patients enriching epitope >1.5 (moderate stringency) [1] | # of patients enriching epitope >5 (high stringency) [1] | epitope enrichment, patient A11-01-01-039 [1] | epitope enrichment, patient A11-01-02-012 [1] | epitope enrichment, patient A1101_01-01-003 [1] | epitope enrichment, patient A1101_01-02-007 [1] | epitope enrichment, patient A1101_01-02-008 [1] | # of patients enriching epitope >1.5 (moderate stringency) [2] | # of patients enriching epitope >5 (high stringency) [2] | epitope enrichment, patient A01-01-01-030 [2] | epitope enrichment, patient A01-01-02-019 [2] | epitope enrichment, patient A0101_01-01-003 [2] | epitope enrichment, patient A0101_01-01-007 [2] | epitope enrichment, patient A0101_01-01-009 [2] |
| --- | --- | --- | --- | --- | --- | --- | --- | --- | --- | --- | --- | --- | --- | --- |
| KAYNVTQAFGR | 3 | 0 | 0.98 | 0.38 | 1.71 | 4.44 | 2.20 |  |  |  |  |  |  |  |
| ACTDDNALAY |  |  |  |  |  |  |  | 5 | 1 | 6.71 | 4.08 | 4.00 | 1.55 | 3.23 |
| ACTDDNALAYY |  |  |  |  |  |  |  | 5 | 1 | 6.71 | 4.08 | 4.00 | 1.55 | 3.23 |
| TACTDDNALAYY |  |  |  |  |  |  |  | 5 | 1 | 6.71 | 4.08 | 4.00 | 1.55 | 3.23 |
